By stoichiometry N is commonly meant a count of units in the complex or per binding partner.

For the assay, the target named is Shiga toxin 1 B-subunit K9AzK (Shigella dysenteriae).

“Shiga toxin 1 B-subunit K9AzK (natural protein)” yielded a stoichiometry N of 5.

Source of the values: article PMC9733292, “A bispecific, crosslinking lectibody activates cytotoxic T cells and induces cancer cell death” (2022).
